In ChEMBL document CHEMBL1122593, “Phosphorus-nitrogen compounds. 24. Phosphoramide mustard carrier derivatives” (1984):

Test system: P388
Assay: Antitumor activity against P388 Lymphocytic leukemia and treated mean survival time per control mean survival time was determined at 100 mg/kg
Details: Mus musculus

`O=c1ccc2cc3ccoc3c(OP(=O)(Cl)N(CCCl)CCCl)c2o1` (stereo unspecified) was tested, and the T/C was 128%.
